Experiments:
[1] = test system: Staphylococcus aureus Newman; assay: Antibiogram (disk inhibition zones), Staphylococcus aureus Newman; conditions: pre-incubation with compound (175) or (147); FIG. 8 right
[2] = test system: Pseudomonas aeruginosa PA-19660; assay: Antibiogram (disk inhibition zones), PA-19660
[3] = test system: Pseudomonas aeruginosa PA-19660; assay: MIC and MBC of aminoglycosides after pre-incubation of PA-19660 with DMSO or compound (175); conditions: for MBC / MIC: average of triplicate
P. aeruginosa strains = assay: Bacterial growth kinetics in the presence of compound (175); conditions: compound (175) up to 100 μM
[4] = pre-incubation with 10 μM compound (175), 2 hours 37 °C

CCC(CC)CNc1cc(Nc2cccnn2)c2nnc(C(C)C)n2n1
effect on antibiotic properties of five aminoglycosides (inhibition zones) [1]: Neither compound (175) nor compound (147) had any influence
effect on aminoglycoside growth inhibition (inhibition zones) ([2]; compound (147) pre-incubation, three determinations): no impact

NC[C@H]1O[C@H](O[C@H]2[C@H](O)[C@@H](O[C@H]3O[C@H](CO)[C@@H](O)[C@H](N)[C@H]3O)[C@H](N)C[C@@H]2N)[C@H](N)C[C@@H]1O
MBC [3, 4]: 0.326 µg/mL
MIC [3, 4]: 0.195 µg/mL
MBC ([3]; pre-incubation with 0.1% DMSO): 0.195 µg/mL
MIC ([3]; pre-incubation with 0.1% DMSO): 0.195 µg/mL

NC[C@H]1O[C@H](O[C@H]2[C@H](O)[C@@H](O[C@H]3O[C@H](CO)[C@@H](O)[C@H](N)[C@H]3O)[C@H](N)C[C@@H]2N)[C@H](O)[C@@H](O)[C@@H]1O
MBC [3, 4]: 33.33 µg/mL
MIC [3, 4]: 20.8 µg/mL
MBC ([3]; pre-incubation with 0.1% DMSO): 16.67 µg/mL
MIC ([3]; pre-incubation with 0.1% DMSO): 12.5 µg/mL

[H]/N=C(/N)N[C@H]1[C@H](O)[C@@H](O)[C@H](O[C@@H]2O[C@@H](C)[C@](O)(C=O)[C@H]2O[C@@H]2O[C@@H](CO)[C@H](O)[C@@H](O)[C@@H]2NC)[C@@H](N/C(N)=N\[H])[C@@H]1O
MBC [3, 4]: 16.67 µg/mL
MIC [3, 4]: 8.33 µg/mL
MBC ([3]; pre-incubation with 0.1% DMSO): 12.5 µg/mL
MIC ([3]; pre-incubation with 0.1% DMSO): 6.25 µg/mL

Gentamicin sulfate
MBC [3, 4]: 0.521 µg/mL
MIC [3, 4]: 0.391 µg/mL
MBC ([3]; pre-incubation with 0.1% DMSO): 0.521 µg/mL
MIC ([3]; pre-incubation with 0.1% DMSO): 0.391 µg/mL

CCC(CC)Nc1cc(Nc2cccnn2)c2nnc(C3CC3)n2n1
effect on antibiotic properties of five aminoglycosides (inhibition zones) [1]: Neither compound (175) nor compound (147) had any influence
effect on aminoglycoside growth inhibition (inhibition zones) ([2]; 10 μM compound (175), 2 hours pre-incubation, vs 0.1% DMSO, six determinations): No noticeable differences
kinetic growth of bacterial strains (P. aeruginosa strains): remained unchanged
effect on susceptibility of PA-19660 to aminoglycosides ([3]; 10 μM compound (175)): no effect

Reference: patent US20260384439A1, “[1,2,4]-TRIAZOLO[4,3-B]PYRIDAZINE DERIVATIVES USEFUL AS A MEDICAMENT” (published 2026)
